Pooled drug test results. Numbers come from NIAID ChemDB, via PubChem.

Common to all: whole-cell or culture tests; species: HIV-1; read by: RT activity; measure: fold resistance

Conditions beyond the fields shown may differ between rows. Fold resistance has wild type as its base.

{"SMILES": "COc1ccc(C[C@H](NC(=O)c2cccc(O)c2C)[C@H](O)C(=O)N2CSC(C)(C)[C@H]2C(=O)NCc2ccccc2C)cc1", "strain": "1002-60 PI-resistant", "cell line": "PBMC", "changes": "PR-L10I M46I I54V L63P V82F L90M", "value": "3"}
{"SMILES": "Nc1nc(NC2CC2)c2ncn([C@H]3C=C[C@@H](CO)C3)c2n1", "strain": "1617-1 NRTI resistant recombinant", "cell line": "PBMC", "changes": "RT-T69K K70G V75I F77L F116Y Q151M M184V", "value": ">100"}
{"SMILES": "Nc1ccn([C@H]2CC[C@@H](CO)O2)c(=O)n1", "strain": "HxB2D(RT-D67G)", "cell line": "MT-4", "changes": "RT-D67G", "value": "1.23"}
{"SMILES": "Cc1cn([C@H]2C[C@H](N=[N+]=[N-])[C@@H](CO)O2)c(=O)[nH]c1=O", "strain": "1617-1 NRTI resistant recombinant", "cell line": "PBMC", "changes": "RT-T69K K70G V75I F77L F116Y Q151M M184V", "value": "261"}
{"SMILES": "Cc1ccccc1CNC(=O)[C@H]1N(C(=O)[C@@H](O)[C@H](Cc2ccccc2)NC(=O)c2cccc(O)c2C)CSC1(C)C", "strain": "1002-60 PI-resistant", "cell line": "PBMC", "changes": "PR-L10I M46I I54V L63P V82F L90M", "value": "2"}
{"SMILES": "O=c1[nH]cnc2c1ncn2[C@H]1CC[C@@H](CO)O1", "strain": "1617-1 NRTI resistant recombinant", "cell line": "PBMC", "changes": "RT-T69K K70G V75I F77L F116Y Q151M M184V", "value": "23"}
{"SMILES": "COC(=O)N[C@H](C(=O)N[C@@H](Cc1ccccc1)[C@@H](O)CN(Cc1ccc(-c2ccccn2)cc1)NC(=O)[C@@H](NC(=O)OC)C(C)(C)C)C(C)(C)C", "strain": "Indinavir-resistant (PR-L10R M46I L63P V82T I84V)", "cell line": "CEM + CEM-SS", "changes": "PR-L10R M46I L63P V82T I84V", "conditions": "10 d", "value": "3"}
{"SMILES": "Cc1cn([C@H]2C[C@H](N=[N+]=[N-])[C@@H](CO)O2)c(=O)[nH]c1=O", "strain": "RTMF(RT-T215Y)", "cell line": "PBMC", "changes": "RT-T215Y", "value": "9"}
{"SMILES": "COc1cccc(C[C@H](NC(=O)c2cccc(O)c2C)[C@H](O)C(=O)N2CSC(C)(C)[C@H]2C(=O)NCc2c(C)cccc2C)c1", "strain": "1026-40 PI-resistant", "cell line": "PBMC", "changes": "PR-L10I M46I I54V L63P A71V V82A L90M", "value": "9"}
{"SMILES": "Cc1cn([C@H]2C[C@H](N=[N+]=[N-])[C@@H](CO)O2)c(=O)[nH]c1=O", "strain": "HXB2-D184+294 (RT M184V P294S)", "cell line": "MT-4", "changes": "RT-M184V P294S", "value": "1.4"}
{"SMILES": "Cc1cccc(C)c1OCC(=O)N[C@@H](Cc1ccccc1)[C@@H](O)C[C@H](Cc1ccccc1)NC(=O)[C@H](C(C)C)N1CCCNC1=O", "strain": "052-52 PI-resistant", "cell line": "PBMC", "changes": "PR-L10R M46I L63P A71V V82T I84V", "value": "527"}
{"SMILES": "Nc1ccn([C@H]2CC[C@@H](CO)O2)c(=O)n1", "strain": "HX(RT-S156A)", "cell line": "MT-2", "changes": "RT-S156A", "value": "1.32"}
{"SMILES": "Nc1ccn([C@@H]2CS[C@H](CO)O2)c(=O)n1", "strain": "4755-5 NRTI resistant recombinant", "cell line": "PBMC", "changes": "RT-M41L E44D D67N T69D Y118I M184V L210W T215Y", "value": ">300"}
{"SMILES": "Nc1nc(=O)n([C@@H]2CO[C@H](CO)S2)cc1F", "strain": "HXB2D(RT-M184I)", "cell line": "CBMC", "changes": "RT-M184I", "value": "1.06"}
{"SMILES": "CC(C)CN(C[C@@H](O)[C@H](Cc1ccccc1)NC(=O)O[C@H]1CCOC1)S(=O)(=O)c1ccc(N)cc1", "strain": "1026-40 PI-resistant", "cell line": "PBMC", "changes": "PR-L10I M46I I54V L63P A71V V82A L90M", "value": "29"}
{"SMILES": "Nc1nc(=O)n([C@@H]2CO[C@H](CO)S2)cc1F", "strain": "HXB2D (RT-K65R)", "cell line": "MT-2", "changes": "RT-K65R", "value": "11.36"}
{"SMILES": "Cc1cn([C@H]2C[C@H](N=[N+]=[N-])[C@@H](CO)O2)c(=O)[nH]c1=O", "strain": "HxB2D(RT-D67G)", "cell line": "MT-4", "changes": "RT-D67G", "value": "1.36"}
{"SMILES": "Cc1ccnc2c1NC(=O)c1cccnc1N2C1CC1", "strain": "HX(RT-S156A)", "cell line": "MT-2", "changes": "RT-S156A", "value": "0.222"}
{"SMILES": "Nc1nc(=O)n([C@@H]2CC[C@H](CO)O2)cc1F", "strain": "N119 nevirapine-resistant (RT Y181C)", "cell line": "CEM + CEM-SS", "changes": "RT-Y181C", "value": "10.5"}
{"SMILES": "Nc1nc(=O)n([C@H]2CO[C@@H](CO)S2)cc1F", "strain": "HXB2D(RT-M184I)", "cell line": "MT-4", "changes": "RT-M184I", "value": "3.75"}

3 of the rows above, restated:

{"SMILES": "Nc1nc(NC2CC2)c2ncn([C@H]3C=C[C@@H](CO)C3)c2n1", "strain": "1617-1 NRTI resistant recombinant", "cell line": "PBMC", "changes": "RT-T69K K70G V75I F77L F116Y Q151M M184V", "value": ">100"}
{"SMILES": "Cc1cn([C@H]2C[C@H](N=[N+]=[N-])[C@@H](CO)O2)c(=O)[nH]c1=O", "strain": "RTMF(RT-T215Y)", "cell line": "PBMC", "changes": "RT-T215Y", "value": "9"}
{"SMILES": "O=c1[nH]cnc2c1ncn2[C@H]1CC[C@@H](CO)O1", "strain": "1617-1 NRTI resistant recombinant", "cell line": "PBMC", "changes": "RT-T69K K70G V75I F77L F116Y Q151M M184V", "value": "23"}